For the series, the system named is Vero cells. As to the kind of experiment: Cytotoxicity assay, CCK-8. The settings on record: at or below 10 µM, 3 days, concentrations up to 50 µM.

With `CC[C@H](C)[C@H](NC(=O)[C@H](Cc1ccc(O)cc1)NC(=O)[C@H](Cc1ccc(O)cc1)NC(=O)[C@H](CCC(=O)O)NC(=O)[C@H](CC(N)=O)NC(=O)[C@H](CC(C)C)NC(=O)[C@H](C)NC(=O)[C@H](CCCCN)NC(=O)[C@@H](NC(=O)[C@@H](NC(=O)[C@H](CCC(N)=O)NC(=O)[C@H](CCC(N)=O)NC(=O)[C@H](CC(C)C)NC(=O)[C@H](CO)NC(=O)[C@H](CCC(=O)O)NC(=O)[C@H](CCSC)NC(=O)[C@H](CCC(=O)O)NC(=O)[C@H](Cc1ccc(O)cc1)NC(=O)[C@@H](NC(=O)[C@H](CC(C)C)NC(=O)[C@H](CC(=O)O)NC(=O)[C@H](CC(C)C)NC(=O)[C@H](CC(C)C)NC(=O)[C@@H](NC(=O)[C@H](Cc1c[nH]c2ccccc12)NC(=O)[C@H](CC(N)=O)NC(=O)[C@@H](NC(=O)[C@H](CCC(N)=O)NC(=O)[C@@H](NC(=O)[C@H](CC(C)C)NC(=O)[C@@H](N)CO)[C@@H](C)O)[C@@H](C)CC)[C@@H](C)O)[C@@H](C)O)C(C)C)C(C)C)C(=O)N[C@@H](CC(=O)O)C(=O)N[C@@H](CC(C)C)C(=O)N[C@@H](CCCCN)C(=O)N[C@@H](CCC(=O)O)C(=O)N[C@@H](CC(C)C)C(=O)O`, the “Cytotoxicity in Vero cells” value is listed as “No cytotoxicity”.
For `CC[C@H](C)[C@H](NC(=O)[C@H](Cc1ccc(O)cc1)NC(=O)[C@H](Cc1ccc(O)cc1)NC(=O)[C@H](CCC(=O)O)NC(=O)[C@H](CC(N)=O)NC(=O)[C@H](CC(C)C)NC(=O)[C@H](C)NC(=O)[C@H](CCCCN)NC(=O)[C@@H](NC(=O)[C@@H](NC(=O)[C@H](CCC(N)=O)NC(=O)[C@H](CCC(N)=O)NC(=O)[C@H](CC(C)C)NC(=O)[C@H](CO)NC(=O)[C@H](CCC(=O)O)NC(=O)[C@H](CCSC)NC(=O)[C@H](CCC(=O)O)NC(=O)[C@H](Cc1ccc(O)cc1)NC(=O)[C@@H](NC(=O)[C@H](CC(C)C)NC(=O)[C@H](CC(=O)O)NC(=O)[C@H](CC(C)C)NC(=O)[C@H](CC(C)C)NC(=O)[C@@H](NC(=O)[C@H](Cc1c[nH]c2ccccc12)NC(=O)[C@H](CC(N)=O)NC(=O)[C@@H](NC(=O)[C@H](CCC(N)=O)NC(=O)[C@@H](NC(=O)[C@H](CC(C)C)NC(=O)[C@@H](N)CO)[C@@H](C)O)[C@@H](C)CC)[C@@H](C)O)[C@@H](C)O)C(C)C)C(C)C)C(=O)N[C@@H](CC(=O)O)C(=O)N[C@@H](CC(C)C)C(=O)N[C@@H](CCCCN)C(=O)N[C@@H](Cc1c[nH]cn1)C(=O)N[C@@H](CC(C)C)C(=O)O` the value was “No cytotoxicity”.
